Anti-infective test results gathered from many reports (values: NIAID ChemDB through PubChem).

All rows: target-level tests; species: Toxoplasma gondii

Percent inhibition refers to the dose given; in toxicity tests it is the harm to the cells. Blank or dashed fields: not listed here. Conditions beyond the fields shown may differ between rows. ICn: concentration for n% inhibition.

| smiles | strain or isolate | protein | measure | dose | result |
|---|---|---|---|---|---|
| Nc1nc2cc[nH]c2c(=O)[nH]1 | RH | Phosphoribosyltransferase | Ki |  | 14 µM |
| CCCCn1c(=O)cc[nH]c1=O | RH | Uracil phosphoribosyltransferase | IC50 |  | >2000 µM |
| CN(Cc1cnc2nc(N)nc(N)c2n1)c1ccc(C(=O)N[C@@H](CCC(=O)O)C(=O)O)cc1C(F)(F)F | RH | DHFR | IC50 |  | 0.0067 µM |
| Nc1ccc(S(=O)(=O)Nc2ccc(S(=O)(=O)O)cc2)cc1 |  | DHPS | IC50 |  | >520 µM |
| CC1(C)N=C(N)N=C(N)N1c1cccc(S(=O)(=O)F)c1.CCS(=O)(=O)O | RH | DHFR | IC50 |  | 0.34 µM |
| c1ncc2[nH]cnc2n1 | RH | Phosphoribosyltransferase | IC50 |  | >900 µM |
| CCS(=O)(=O)c1ccc(N2C(N)=NC(N)=NC2(C)C)cc1 | RH | DHFR | IC50 |  | 8.9 µM |
| Cc1cnc(C)c(NS(=O)(=O)c2ccc(N)cc2)n1 |  | DHPS | IC50 |  | <340 µM |
| O=c1[nH]c2nc[nH]c(=O)c2[nH]1 | RH | Phosphoribosyltransferase | Ki |  | 4100 µM |
| Nc1ccc(S(=O)(=O)NC2CCC(O)CC2)cc1 |  | DHPS | IC50 |  | <270 µM |
| S=c1[nH]ncc2[nH]cnc12 | RH | Phosphoribosyltransferase | Ki |  | 30 µM |
| CCc1nc(N)nc(N)c1-c1ccc(Cl)c(Cl)c1 | RH | DHFR | IC50 |  | 0.094 µM |
| Nc1ccnc(=O)[nH]1 | RH | Phosphoribosyltransferase | Ki |  | 286 µM |
| Nc1ccnc(=O)[nH]1 | RH | Uracil phosphoribosyltransferase | inhibition | 2000 µM | <5% |
| Cc1cnc2nc(N)nc(N)c2n1 | RH | DHFR | IC50 |  | >20 µM |
| O=c1cc(Cc2ccccc2)[nH]c(=O)[nH]1 | RH | Uracil phosphoribosyltransferase | inhibition | 2000 µM | <5% |
| Nc1nc(Cl)nc2nc[nH]c12 | RH | Phosphoribosyltransferase | Ki |  | 2200 µM |
| O=C(O)c1cnccn1 | RH | Uracil phosphoribosyltransferase | IC50 |  | >2000 µM |
| CC1(C)N=C(N)N=C(N)N1c1ccc(OCCOc2ccc([N+](=O)[O-])cc2)cc1 | RH | DHFR | IC50 |  | 0.027 µM |
| S=c1[nH]c(=S)[nH]c(=S)[nH]1 | RH | Uracil phosphoribosyltransferase | Ki |  | 110 µM |
| Cc1cc(C)nc(NS(=O)(=O)c2ccc(N)cc2)n1 |  | DHPS | IC50 |  | 430 µM |
| CCOC(=O)c1c[nH]c(=S)[nH]c1=O | RH | Uracil phosphoribosyltransferase | Ki |  | 1200 µM |
| CCc1nc(N)nc(N)c1-c1ccc(N(CC)Cc2ccccc2)c([N+](=O)[O-])c1 | RH | DHFR | IC50 |  | 0.17 µM |
| O=c1ccn(C2CCCCC2)c(=O)[nH]1 | RH | Uracil phosphoribosyltransferase | IC50 |  | >2000 µM |
| O=c1cc[nH]c(=O)[nH]1 | RH | Phosphoribosyltransferase | Ki |  | 699 µM |
| O=c1[nH]cc(I)c(=O)[nH]1 | RH | Uracil phosphoribosyltransferase | inhibition | 2000 µM | <5% |
| Nc1ncnc2[nH]ncc12 | RH | Phosphoribosyltransferase | IC50 |  | >900 µM |

Again, the opening 2 rows:

smiles	strain or isolate	protein	measure	dose	result
Nc1nc2cc[nH]c2c(=O)[nH]1	RH	Phosphoribosyltransferase	Ki		14 µM
CCCCn1c(=O)cc[nH]c1=O	RH	Uracil phosphoribosyltransferase	IC50		>2000 µM